Compound potency records, mixed from different reports. Data source: NIAID ChemDB in PubChem.

Shared fields: enzyme or target tests; target: CCR5

ICn is the concentration giving n% inhibition. Neighbouring rows are from separate reports. Inhibition is in % at the dose shown (toxicity tests: loss of growth or viability). Blank or dashed fields: not listed here.

{"compound": "CN1CC(C(=O)N(CCCN2CCC(C(=O)c3ccc(F)cc3)CC2)c2ccccc2)CC1=O", "read-out": "inhibition", "tested at": "1 µM", "read by": "radiometric", "result": "40%"}
{"compound": "CC(C)=CC[C@@H](O)C1=CC(=O)c2c(O)ccc(O)c2C1=O", "read-out": "inhibition", "tested at": "1 µM", "result": "80%"}
{"compound": "CCN(C(=O)Cc1ccc(S(C)(=O)=O)cc1)C1CCN(CC[C@H](NC(=O)C2CCN(S(=O)(=O)c3ccc(NC(C)=O)cc3)CC2)c2ccccc2)CC1", "read-out": "IC50", "read by": "fluorescence", "result": "<50 µM"}
{"compound": "O=S1CC2(CCN(CC[C@H](COCc3ccccc3)c3ccc(Cl)c(Cl)c3)CC2)c2ccccc21", "read-out": "inhibition", "tested at": "1 µM", "read by": "radioligand binding / binding", "result": "41%"}
{"compound": "O=C1CC(C(=O)N(CCCN2CCC(Cc3ccccc3)CC2)c2ccccc2)CN1Cc1ccccc1Cl", "read-out": "inhibition", "tested at": "1 µM", "read by": "radiometric", "result": "91%"}
{"compound": "CCN(C(=O)Cc1ccc(S(C)(=O)=O)cc1)C1CCN(CC[C@H](NC(=O)C2CCN(S(=O)(=O)CC)CC2)c2ccccc2)CC1", "read-out": "IC50", "read by": "fluorescence", "result": "<50 µM"}
{"compound": "CN1CC(C(=O)N(CCCN2CCC3(C=Cc4ccccc43)CC2)c2ccccc2)CC1=O", "read-out": "inhibition", "tested at": "1 µM", "read by": "radiometric", "result": "24%"}
{"compound": "Cc1ccnc(C)c1C(=O)N1CCC(C)(N2CCN([C@@H](C)c3ccc(C(F)(F)F)cc3)[C@@H](C)C2)CC1", "read-out": "IC50", "read by": "fluorescence", "result": "<0.1 µM"}
{"compound": "CCN(C(=O)Cc1ccc(S(C)(=O)=O)cc1)C1CCN(CC[C@H](NC(=O)C2CCN(C(=O)Cc3ccccc3)CC2)c2ccccc2)CC1", "read-out": "IC50", "read by": "fluorescence", "result": "<50 µM"}
{"compound": "O=C1CC(C(=O)N(CCCN2CCC(Cc3ccccc3)CC2)c2ccccc2)CN1c1ccccc1", "read-out": "inhibition", "tested at": "1 µM", "read by": "radiometric", "result": "76%"}
{"compound": "CCN(C(=O)Cc1ccc(S(C)(=O)=O)cc1)C1CCN(CC[C@H](NC(=O)C2CCN(C(=O)c3ccc(Cl)cc3)CC2)c2ccccc2)CC1", "read-out": "IC50", "read by": "fluorescence", "result": "<50 µM"}
{"compound": "CS(=O)(=O)N(CCCN1CCC(Cc2ccccc2)CC1)c1ccccc1", "read-out": "inhibition", "tested at": "10 µM", "read by": "radiometric", "result": "43%"}
{"compound": "CN1CC(C(=O)N(CCCN2CCC(Cc3ccc(F)cc3)CC2)c2ccc(Cl)c(Cl)c2)CC1=O", "read-out": "inhibition", "tested at": "1 µM", "read by": "radiometric", "result": "92%"}
{"compound": "CN(C[C@@H](CCN1CCC2(CC1)CS(=O)c1ccccc12)c1ccc(Cl)c(Cl)c1)C(=O)Nc1ccccc1", "read-out": "IC50", "read by": "radioligand binding / binding", "result": ">10 µM"}
{"compound": "CCN(C(=O)Cc1ccc(S(C)(=O)=O)cc1)C1CCN(CC[C@H](NC(=O)Oc2ccccc2)c2ccccc2)CC1", "read-out": "IC50", "read by": "fluorescence", "result": "<50 µM"}
{"compound": "CN1CC(C(=O)N(CCCN2CCC(Cc3ccccc3)CC2)c2ccccc2)CC1=O", "read-out": "inhibition", "tested at": "1 µM", "read by": "radiometric", "result": "57%"}
{"compound": "c1ccc(CC2CCN(CCCNc3ccccc3)CC2)cc1", "read-out": "inhibition", "tested at": "10 µM", "read by": "radiometric", "result": "30%"}
{"compound": "CCN(C(=O)Cc1ccc(S(C)(=O)=O)cc1)C1CCN(CC[C@H](NC(=O)C2CCN(C(=O)C3CC3)CC2)c2ccccc2)CC1", "read-out": "IC50", "read by": "fluorescence", "result": "<50 µM"}
{"compound": "c1ccc2c(NCc3ccc(CN4CCCNCCNCCCNCC4)cc3)cccc2c1", "read-out": "IC50", "read by": "fluorescence", "result": "<10 µM"}
{"compound": "CN(Cc1ccccc1)C[C@@H](CCN1CCC2(CC1)CS(=O)c1ccccc12)c1ccc(Cl)c(Cl)c1", "read-out": "IC50", "read by": "radioligand binding / binding", "result": ">1 µM"}

A second listing of 2 rows from above:

compound | read-out | tested at | read by | result
CCN(C(=O)Cc1ccc(S(C)(=O)=O)cc1)C1CCN(CC[C@H](NC(=O)C2CCN(C(=O)C3CC3)CC2)c2ccccc2)CC1 | IC50 | - | fluorescence | <50 µM
c1ccc2c(NCc3ccc(CN4CCCNCCNCCCNCC4)cc3)cccc2c1 | IC50 | - | fluorescence | <10 µM